# Mutational scan of HIV-1 Vif (LAI) in cells with APOBEC3G

Vif of LAI (a laboratory-adapted subtype B strain), residues 12-115; positions count from the first residue of the whole protein:
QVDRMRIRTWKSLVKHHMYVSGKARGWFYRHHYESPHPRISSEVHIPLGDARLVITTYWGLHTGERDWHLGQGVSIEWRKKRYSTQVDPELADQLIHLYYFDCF

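A pool of vif mutants was passaged twice, 72 h each, on SupT1 cells that express APOBEC3G. Frequencies after the second round, in three biological replicates, were compared with the merged pool after the first round. The overlap of vif with pol had been removed, so integrase is unaffected.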

Scale: log2 enrichment, wild type = 0; negative values mean that the variant was depleted. Substitutions are written as wild-type residue, site number, new residue. The median of three replicates is given. Input reads are the counts in the merged round-one pool, before selection. The scan is noisy: the rank correlation of replicates is about 0.4 to 0.65, and variants with under about 50 input reads tend to read too high. The authors note that some positive scores may be noise, and some enriched variants failed when tested singly. Some changes are missing from the data or left out.

substitution	input reads	median log2 enrichment
Q12K	39	0.51
Q12L	21	1.39
Q12N	1367	0.13
Q12Y	875	-3.43
V13F	446	-0.75
V13N	512	-1.61
I18L	2901	-1.02
T20R	88	1.15
T20V	64	1.17
K22A	902	-1.82
V25C	46	0.56
H28P	1092	1.38
M29G	1290	-1.82
Y30D	33	2.26
V31H	603	-1.36
V31Q	705	-2.73
V31T	69	1.68
S32K	24	1.21
S32R	207	-2.02
G33Q	2098	-2.18
K34S	692	-2.48
A35C	775	-1.75
R36K	1879	-1.91
Y40C	244	-1.50
Y40N	197	-0.45
E45P	527	-0.55
P49I	499	-2.69
R50T	47	3.22
I51C	794	-3.37
I51T	478	-1.51
S52G	91	-0.33
S52Q	471	-3.54
V55Q	342	-3.44
I57E	191	-1.49
P58T	94	0.33
L59N	830	-3.13
L59Q	902	-1.57
L59S	17	-1.50
G60K	895	-0.79
D61Q	440	-2.98
D61T	33	0.81
A62L	213	2.63
A62P	221	-3.26
L64F	131	-4.08
V65C	485	-0.57
V65L	455	-3.66
I66D	385	-3.59
T67G	539	-1.91
T67I	503	0.15
Y69V	24	-2.42
W70K	82	0.20
L72G	366	-0.92
L72T	371	-1.98
H73S	16	-0.61
H73W	487	-3.29
H73Y	18	-1.54
T74C	836	-2.03
G75T	450	-2.55
D78C	477	-1.83
W79Y	625	-2.41
L81F	508	1.08
G82A	807	-0.82
G82L	33	-0.98
Q83N	247	-2.13
G84K	402	-1.90
V85Q	1022	-1.30
S86I	540	-2.95
I87R	974	-4.31
I87T	974	-0.74
W89R	506	-3.32
R90H	334	-1.83
K91Y	807	-2.50
S95I	741	-3.23
D99C	428	-2.87
D99P	226	-3.74
D99R	287	-4.41
L102A	438	-2.97
L102N	111	-4.17
L102P	278	-3.63
A103D	198	-3.12
L106T	385	-2.31
H108K	856	-1.17
H108R	1013	-1.80
Y111H	63	0.45
F112V	128	-2.51
D113C	1176	-2.83
D113G	278	-2.21
F115H	265	-1.16
F115K	127	-2.03

Excerpt, the final 10 entries:

With A103D (input reads 198) the assay gave -3.12.
With L106T (input reads 385) the assay gave -2.31.
With H108K (input reads 856) the assay gave -1.17.
With H108R (input reads 1013) the assay gave -1.80.
With Y111H (input reads 63) the assay gave 0.45.
With F112V (input reads 128) the assay gave -2.51.
With D113C (input reads 1176) the assay gave -2.83.
With D113G (input reads 278) the assay gave -2.21.
With F115H (input reads 265) the assay gave -1.16.
With F115K (input reads 127) the assay gave -2.03.

From the data files of Langley et al. 2025, preprint, doi:10.1101/2025.10.20.683452.